## Share of PSTVd stem 15 variants by leaf site

Reference: Wu et al. 2024, doi:10.1371/journal.ppat.1012142.

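Three N. benthamiana plants were inoculated with the whole mutant pool. Progeny were sequenced from the inoculated region (day 5), the margin of the inoculated leaf (day 10) and systemic leaves (day 12).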

PSTVd intermediate strain, stem 15: wild type CUGGAGCGAUCGCUUCGG, pool pattern CUGGAGCGAUNGNNUNNG; upper and lower strand joined, each 5' to 3', the first 9 letters being the upper strand.

Numbers give reads per thousand; 0 = not seen among the reads, higher = more abundant. Each site shows the three plants. "Pool" is the share in the plasmid pool used as inoculum, on the same scale. The inoculated region was read from the minus strand, the other sites from the plus strand. With 36,693-63,082 reads a sample, very low values are single reads. Wild type was 10.2 per thousand in the pool and the most common sequence in every sample (inoculated region 285, 367, 312; leaf margin 785, 865, 782; systemic leaves 854, 898, 915). Sequences that differ at fixed positions probably stem from PCR or sequencing errors, and defective variants can be carried along by functional ones.

sequence | pool | inoculated region | leaf margin | systemic leaves
AUGGAGCGAUCGACUCCG | 0.0162 | 0 0 0 | 0 0 0 | 0 0 0
AUGGAGCGAUGGCCUUAG | 0.0162 | 0 0 0 | 0 0 0 | 0 0 0
CAGGAGCGAUUGGAUAAG | 0.0162 | 0 0 0 | 0 0 0 | 0 0 0
CUGGAGCGAUAGAAUAGG | 0.986 | 0.333 0.251 0.223 | 0 0.0545 0.0793 | 0 0 0
CUGGAGCGAUAGAAUGUG | 0.808 | 0.254 0.251 0.242 | 0.0827 0 0 | 0 0 0
CUGGAGCGAUAGAGUCUG | 0.905 | 0.333 0.272 0.354 | 0.0414 0 0.0317 | 0 0 0
CUGGAGCGAUAGAUUAAG | 0.970 | 0.215 0.398 0.223 | 0.0620 0 0.0159 | 0 0 0
CUGGAGCGAUAGAUUAGG | 0.840 | 0.196 0.356 0.335 | 0.103 0 0.0159 | 0 0 0
CUGGAGCGAUAGGAUCCG | 0.857 | 0.274 0.272 0.335 | 0.103 0.0273 0.0159 | 0 0 0
CUGGAGCGAUAGGAUGAG | 0.970 | 0.294 0.356 0.279 | 0.0620 0.0545 0.0317 | 0 0 0
CUGGAGCGAUAGGAUUAG | 0.792 | 0.176 0.147 0.223 | 0.0207 0.0545 0.0159 | 0 0 0
CUGGAGCGAUAGGGUUAG | 1.28 | 0.274 1.24 0.223 | 0.0207 0.0545 0.0159 | 0 0 0
CUGGAGCGAUAGUAUCUG | 0.743 | 0.313 0.419 0.372 | 0.0827 0.0273 0.0634 | 0 0 0
CUGGAGCGAUAGUGUAUG | 0.760 | 0.235 0.209 0.298 | 0 0.0545 0.0159 | 0 0 0
CUGGAGCGAUAGUGUGGG | 0.857 | 0.391 0.188 0.298 | 0.0414 0.0545 0 | 0 0 0
CUGGAGCGAUAGUGUGUG | 0.840 | 0.235 0.377 0.186 | 0.0207 0 0 | 0 0 0
CUGGAGCGAUCGAAUGCG | 0.711 | 0.196 0.251 0.391 | 0.103 0 0.0317 | 0 0 0
CUGGAGCGAUCGAAUGUG | 0.808 | 0.215 0.188 0.391 | 0.0827 0.0273 0.0159 | 0 0 0
CUGGAGCGAUCGACUAUG | 0.582 | 0.196 0.272 0.298 | 0.0827 0.0818 0.0159 | 0 0 0
CUGGAGCGAUCGAUUGUG | 0.808 | 0.313 0.293 0.335 | 0.0207 0.0818 0.0159 | 0 0 0
CUGGAGCGAUCGCUUAGG | 0.776 | 0.567 0.544 0.391 | 0.331 0.218 0.269 | 0.218 0.133 0.0797
CUGGAGCGAUCGGAUAGG | 0.824 | 0.157 0.377 0.372 | 0 0 0.0317 | 0 0 0
CUGGAGCGAUCGGCUUUG | 0.921 | 0.176 0.209 0.279 | 0.145 0.0545 0 | 0 0 0
CUGGAGCGAUCGGUUCUG | 1.39 | 0.607 0.733 0.838 | 0.0827 0.0273 0.0159 | 0 0 0
CUGGAGCGAUCGGUUGGG | 1.66 | 0.704 0.796 0.912 | 0.103 0.191 0.0317 | 0 0.0222 0
CUGGAGCGAUCGUGUAAG | 1.13 | 0.294 1.24 0.242 | 0.0414 0.0273 0.0159 | 0 0 0
CUGGAGCGAUCGUGUGUG | 0.760 | 0.235 0.293 0.298 | 0.0620 0.0545 0.0317 | 0 0 0
CUGGAGCGAUCGUUUCGG | 0.921 | 13.0 12.9 22.7 | 11.1 6.84 55.6 | 6.04 7.18 23.2
CUGGAGCGAUCGUUUGAG | 1.62 | 0.607 1.42 0.689 | 0.0827 0.0545 0.0159 | 0 0 0
CUGGAGCGAUGGAUUGUG | 0.743 | 0.196 0.168 0.223 | 0 0 0.0317 | 0 0 0
CUGGAGCGAUGGCCUUCG | 0.840 | 0.274 0.356 0.298 | 0 0 0.0159 | 0 0 0
CUGGAGCGAUGGGCUUUG | 1.08 | 0.215 0.921 0.354 | 0.0207 0 0.0317 | 0 0 0
CUGGAGCGAUGGGGUACG | 0.776 | 0.333 0.168 0.372 | 0.0414 0 0.0317 | 0 0 0
CUGGAGCGAUGGGGUGCG | 0.727 | 0.254 0.168 0.298 | 0.0827 0 0.0317 | 0 0 0
CUGGAGCGAUGGUAUGAG | 0.873 | 0.313 0.377 0.242 | 0 0.0545 0.0159 | 0 0 0
CUGGAGCGAUGGUAUGUG | 0.760 | 0.254 0.419 0.596 | 0.0620 0.0818 0 | 0 0 0
CUGGAGCGAUGGUUUCUG | 0.970 | 0.333 0.314 0.261 | 0.0414 0.0545 0.0159 | 0 0 0
CUGGAGCGAUUGAAUCUG | 0.711 | 0.137 0.377 0.261 | 0.0414 0.0545 0.0317 | 0 0 0
CUGGAGCGAUUGACUCCG | 1.60 | 0.861 1.53 0.893 | 0.0207 0.0545 0.0159 | 0 0 0.0399
CUGGAGCGAUUGCAUCUG | 0.857 | 0.254 0.293 0.503 | 0.0414 0 0 | 0 0 0
CUGGAGCGAUUGCAUUAG | 0.582 | 1.92 1.09 0.223 | 0.0620 0.0273 0.0159 | 0 0 0
CUGGAGCGAUUGCGUUAG | 0.776 | 2.13 1.28 1.56 | 0.0414 0.0273 0.0159 | 0 0 0
CUGGAGCGAUUGGAUAAG | 0.695 | 0.352 0.251 0.261 | 0.0827 0.0818 0.0317 | 0.970 0 0
CUGGAGCGAUUGGGUUUG | 0.760 | 0.157 0.251 0.316 | 0.0207 0 0.0317 | 0 0 0
CUGGAGCGAUUGGUUGUG | 2.50 | 2.09 1.70 2.16 | 0.0827 0.0545 0.0159 | 0.0198 0.0222 0
CUGGAGCGAUUGUAUCAG | 0.937 | 1.86 1.40 1.71 | 0.579 0.0273 0.745 | 0.713 0 0
CUGGAGCGAUUGUAUCCG | 0.760 | 0.352 0.314 0.316 | 0.0827 0.0273 0 | 0 0 0
CUGGAGCGAUUGUAUCUG | 0.840 | 0.235 0.377 0.149 | 0.145 0 0.0159 | 0 0 0
CUGGAGCGAUUGUGUCCG | 0.986 | 0.391 0.272 0.298 | 0.0207 0 0.0159 | 0 0 0
CUGGAGCGAUUGUGUGCG | 1.03 | 2.27 2.01 0.261 | 0.124 0.0273 0.0476 | 0 0 0
CUGGAGUGAUAGAGUUUG | 0.0162 | 0 0 0 | 0 0 0 | 0 0 0
CUGGAGUGAUUGUAUAGG | 0.0162 | 0 0 0 | 0 0 0 | 0 0 0
CUUGAGCGAUGGACUAAG | 0.0162 | 0 0 0 | 0 0 0 | 0 0 0

The opening 3 entries, copied out:

sequence,pool,inoculated region,leaf margin,systemic leaves
AUGGAGCGAUCGACUCCG,0.0162,0 0 0,0 0 0,0 0 0
AUGGAGCGAUGGCCUUAG,0.0162,0 0 0,0 0 0,0 0 0
CAGGAGCGAUUGGAUAAG,0.0162,0 0 0,0 0 0,0 0 0